pKi: −log10 of the molar value.
Assays:
glycosylated α9-ECD = glycosylated α9-ECD (Homo sapiens, UniProt Q9UGM1); assay: Competition of [125I]α-Bgtx binding by RgIA, glycosylated α9-ECD; conditions: read-out: Ki value for glycosylated α9-ECD; competition with 50 nM [125I]α-Bgtx; 100 nM protein on Ni2+-NTA beads; PB-BSA pH 7.4; overnight at 4°C; RgIA 1 nM–200 μM; triplicate; mean ± SEM, at least three independent experiments (graph from four experiments)
deglycosylated α9-ECD = deglycosylated α9-ECD (Homo sapiens, UniProt Q9UGM1); assay: Competition of [125I]α-Bgtx binding by RgIA, deglycosylated α9-ECD; conditions: read-out: Ki value for deglycosylated α9-ECD; competition with 50 nM [125I]α-Bgtx; 100 nM protein on Ni2+-NTA beads; PB-BSA pH 7.4; overnight at 4°C; RgIA 1 nM–200 μM; triplicate; mean ± SEM, at least three independent experiments (graph from four experiments)
α9-ECD = α9-ECD (Homo sapiens, UniProt Q9UGM1); assay: Binding of RgIA to the α9-ECD (overall, both glycosylation states); conditions: competition with [125I]α-Bgtx, glycosylated or deglycosylated α9-ECD

By UniProt entry, the sequences of proteins in these tests, tags left out. Residues count along the entry.
UniProt Q9UGM1, 23-238 limits assumed: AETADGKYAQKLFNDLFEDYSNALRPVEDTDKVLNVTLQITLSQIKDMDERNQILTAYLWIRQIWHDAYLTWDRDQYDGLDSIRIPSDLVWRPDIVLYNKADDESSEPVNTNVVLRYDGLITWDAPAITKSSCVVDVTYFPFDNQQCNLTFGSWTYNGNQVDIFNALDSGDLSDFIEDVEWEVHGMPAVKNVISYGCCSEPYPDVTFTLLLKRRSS

For `NCC(=O)N[C@H]1CSSC[C@@H]2NC(=O)[C@H](CCCN=C(N)N)NC(=O)[C@@H]3CCCN3C(=O)[C@H](CC(=O)O)NC(=O)[C@H](CO)NC(=O)[C@H](CSSC[C@@H](C(=O)N[C@@H](CCCN=C(N)N)C(N)=O)NC(=O)[C@H](CCCN=C(N)N)NC(=O)[C@H](Cc3ccc(O)cc3)NC(=O)[C@H](CCCN=C(N)N)NC2=O)NC1=O`, the pKi (glycosylated α9-ECD) was 4.88 and the pKi (deglycosylated α9-ECD) was 5.57.

With `N=C(N)NCCC[C@H](NC(=O)[C@@H]1CSSC[C@@H]2NC(=O)[C@@H](NC(=O)CN)CSSC[C@H](NC(=O)[C@H](CCCNC(=N)N)NC(=O)[C@@H]3CCCN3C(=O)[C@H](CC(=O)O)NC(=O)[C@H](CO)NC2=O)C(=O)N[C@@H](CCCNC(=N)N)C(=O)N[C@@H](Cc2ccc(O)cc2)C(=O)N[C@@H](CCCNC(=N)N)C(=O)N1)C(N)=O` the “binding affinity (Ki) of RgIA to the α9-ECD, in words” value (α9-ECD) was “low micromolar range”.
